Data as given in article PMC2494871, “Vaccinia Virus Proteins A52 and B14 Share a Bcl-2–Like Fold but Have Evolved to Inhibit NF-κB rather than Apoptosis” (2008).

Test system: A52ΔN36 (vaccinia virus protein A52, residues 37–190), vaccinia virus strain Western Reserve, Q01220 37-190
Assay: crystal structure

How did the stoichiometry N turn out when “A52ΔN36 (vaccinia virus protein A52, residues 37–190)” was run?
The stoichiometry N was 2.
